Consider 5 compounds from publication PMC5797126, “Identification of influenza polymerase inhibitors targeting C-terminal domain of PA through surface plasmon resonance screening” (Scientific Reports, 2018).

SMILES strings stand for the structures. Read-outs that look alike come from different tables or passages of the source.

For one assay, the target named is influenza RNP (Influenza A virus, UniProt P15659). Kind of assay: RNP reconstitution reporter assay. As to conditions: for RNP activities in RNP screening: highest non-cytotoxic concentration of each compound; for IC50: read-out: RNP assay IC50. The class given is cell-based. Background: A reporter such as luciferase makes a cellular process visible.
In assay [1] the test system is influenza virus (A/WSN/33). Nature of the assay: Viral yield reduction assay, A/WSN/33 in MDCK cells. To be noted: for inhibition of influenza viral yield (in words): A/WSN/33, 0.01 MOI, up to 100 μM. Type of assay: cell-based.
Assay [2] addresses PAC (C-terminal domain of PA, residues 256–716 of A/WSN/33) (Influenza A virus, UniProt P15659). Kind of assay: Microscale thermophoresis (MST) with PAC. As to conditions: read-out: MST Kd; Kd model, NanoTemper MO.Control; Kd ± confidence level. Type of assay: binding, influenza A/WSN/33.
Setting [3] is: 50% inhibition of RNP activity vs DMSO control, 293T cells, mean ± SD, three experiments.

What is called IC50 is the concentration needed to halve the response being measured. For the compound `O=C1C2=C(CCC2)NC2C1C(=O)N(c1ccccc1)C(=O)N2c1ccccc1` (centres unmarked), the “RNP activities in RNP screening” value on influenza RNP was “able to inhibit RNP activities”. In addition, the 50% inhibitory concentration (IC50) (on influenza RNP (setting [3]); in assay [1]) was over 100 µM throughout. Further, the “inhibition of influenza viral yield (in words)” value (“inhibition” below) in assay [1] is recorded as “unable to inhibit influenza viral yield at 100 μM”.

What is called Kd is a measure of binding affinity in units of concentration. In the case of `O=C1C(c2ccccc2)=C(O)c2cccc3c(=O)n(-c4ccccc4)c(O)c1c23`, at influenza RNP, the “RNP activities in RNP screening” value is “able to inhibit RNP activities”. The half-inhibitory concentration (IC50) at influenza RNP (setting [3]) was over 6.25 µM. In addition, in assay [2], the Kd amounted to 6.03 µM. In addition, in assay [1], the IC50 is 4.78 µM and the “inhibition” value is “dose-dependent inhibition of influenza virus”.

Consider `Cn1c(=O)c(Cc2ccccc2)c(O)c2c(=O)n(-c3ccccc3)c(=O)n(-c3ccccc3)c21`, for which, at influenza RNP, the “RNP activities in RNP screening” value is reported as “significant attenuation of RNP transcriptional activities” and the IC50 amounted to 68.8 µM. The compound also returned a 50% inhibitory concentration (IC50) in assay [1] of 30.6 µM.

Consider `O=c1c(-c2ccccc2)c(O)c2c(n1-c1ccccc1)CCCC2`, for which, on influenza RNP, the “RNP activities in RNP screening” value is “able to inhibit RNP activities”. Besides, the IC50 at influenza RNP (setting [3]) was 98.5 µM; in assay [1] it was over 100 µM. Moreover, in assay [1], the “inhibition” value is “unable to inhibit influenza viral yield at 100 μM”.

In the case of `CC1(C)CC(=O)c2c(O)c(-c3ccccc3)c(=O)n(-c3ccccc3)c2C1`, the “RNP activities in RNP screening” value on influenza RNP is given as “able to inhibit RNP activities”. Besides, at influenza RNP (setting [3]), the 50% inhibitory concentration (IC50) came out at 96.5 µM. Moreover, in assay [1], the IC50 is over 100 µM and the “inhibition” value was “unable to inhibit influenza viral yield at 100 μM”.
